Pooled drug test results. Numbers come from NIAID ChemDB, via PubChem.

Shared fields: growth or infection tests; species: Aspergillus niger; read by: agar diffusion; read-out: zone

Zone: diameter of growth inhibition. Neighbouring rows are from separate reports.

O=c1cc(-c2ccccc2)oc2c1ccc1occc12 ; tested at: 50 µg/disc ; value: 9 mm
Cc1ccc2nc(Cl)c(CNc3ccc(F)c(Cl)c3)cc2c1 ; strain or isolate: MTCC 281 ; tested at: 200 µg/mL ; value: 14.06 mm
COc1ccc(-c2oc3ccc(Cl)cc3c(=O)c2OC(C)=O)cc1OC ; tested at: 100 µg/mL ; value: 19 mm
CN(C/C=C/C#CC(C)(C)C)Cc1cccc2ccccc12 ; strain or isolate: MTCC 281 ; tested at: 200 µg/mL ; value: 21.58 mm
CC(=O)Oc1c(-c2ccco2)oc2ccccc2c1=O ; tested at: 100 µg/mL ; value: 25 mm
COc1ccc2nc(NS(=O)(=O)C3C(=O)ONN3c3ccc(C)cc3)sc2c1 ; strain or isolate: MTCC 282 ; tested at: 250 µg/mL ; value: 19 mm
COc1cc2occc2c(O)c1C(=O)/C=C/c1ccccc1 ; tested at: 50 µg/disc ; value: 9.5 mm
Cc1ccc(N2NOC(=O)C2S(=O)(=O)Nc2nc(-c3ccc(Br)cc3)cs2)cc1 ; strain or isolate: MTCC 282 ; tested at: 250 µg/mL ; value: 21 mm
CN[C@@H]1[C@@H](O)[C@@H](O[C@@H]2[C@@H](O)[C@H](O[C@H]3O[C@H](CN)CC[C@H]3N)[C@@H](N)C[C@H]2N)OC[C@]1(C)O ; tested at: 100 µg/mL ; value: 25 mm
Cc1ccc2nc(Cl)c(CNc3ccccc3C)cc2c1 ; strain or isolate: MTCC 281 ; tested at: 200 µg/mL ; value: 8.06 mm
Cc1ccc(-c2oc3ccccc3c(=O)c2O)cc1 ; tested at: 100 µg/mL ; value: 12 mm
C(/C=C/c1ccccc1)=NCCNCCN=C/C=C/c1ccccc1.[Cl][Hg][Cl] ; tested at: 20000 µg/mL ; value: 24 mm
CC(C)(CN=C/C=C/c1ccccc1[N+](=O)[O-])CN=C/C=C/c1ccccc1[N+](=O)[O-] ; tested at: 5 mg/disc ; value: 0.9 mm
COc1ccc(-c2csc(NS(=O)(=O)C3C(=O)ONN3c3ccc(C)cc3)n2)cc1 ; strain or isolate: MTCC 282 ; tested at: 250 µg/mL ; value: 18 mm
Cc1ccc2nc(Cl)c(CNc3ccc(Cl)cc3)cc2c1 ; strain or isolate: MTCC 281 ; tested at: 200 µg/mL ; value: 13.76 mm
O=c1cc(-c2ccc3c(c2)OCO3)oc2c1ccc1occc12 ; tested at: 50 µg/disc ; value: 16 mm
Cc1ccc2nc(Cl)c(CNc3ccc(F)cc3)cc2c1 ; strain or isolate: MTCC 281 ; tested at: 200 µg/mL ; value: 12 mm
C(/C=C/c1ccccc1)=NCCNCCN=C/C=C/c1ccccc1.[I][Hg][I] ; tested at: 30000 µg/mL ; value: 42 mm
Cc1ccc2nc(Cl)c(CN3CCOCC3)cc2c1 ; strain or isolate: MTCC 281 ; tested at: 200 µg/mL ; value: 6.25 mm
COc1ccc(-c2oc3ccccc3c(=O)c2O)cc1OC ; tested at: 100 µg/mL ; value: 11 mm

Repeating the final 3 entries:

{"structure": "C(/C=C/c1ccccc1)=NCCNCCN=C/C=C/c1ccccc1.[I][Hg][I]", "tested at": "30000 µg/mL", "value": "42 mm"}
{"structure": "Cc1ccc2nc(Cl)c(CN3CCOCC3)cc2c1", "strain or isolate": "MTCC 281", "tested at": "200 µg/mL", "value": "6.25 mm"}
{"structure": "COc1ccc(-c2oc3ccccc3c(=O)c2O)cc1OC", "tested at": "100 µg/mL", "value": "11 mm"}